Compound potency records, mixed from different reports. Data source: NIAID ChemDB in PubChem.

All rows: whole-cell or culture tests; agent: Aspergillus fumigatus; endpoint: MIC80

Conditions beyond the fields shown may differ between rows. MIC50, MIC90 and the like: level of inhibition, or share of isolates inhibited.

CC(C)(O)C1Cc2ccc3c(=O)c4ccccc4oc3c2O1 ; value: 62 µg/mL
CC(=O)OC1CCN(CC(O)(Cn2cncn2)c2ccc(F)cc2F)CC1 ; read by: broth dilution ; strain or isolate: 0504656 ; value: 10.5 µM
C[C@@H](N1CCN(Cc2cn(Cc3cccc(C(F)(F)F)c3)c3ccccc23)CC1)[C@](O)(Cn1cncn1)c1ccc(F)cc1F ; read by: resazurin ; strain or isolate: ATCC 16424 ; value: 8 µg/mL
O=C(/C=C/c1ccccc1)OC1CCN(CC(O)(Cn2cncn2)c2ccc(F)cc2F)CC1 ; read by: broth dilution ; strain or isolate: 0504656 ; value: 0.534 µM
CCOC(C)=O ; value: 32 µg/mL
C[C@@H](N1CCN(Cc2cn(Cc3ccc(Cl)cc3)c3c(Cl)cccc23)CC1)[C@](O)(Cn1cncn1)c1ccc(F)cc1F ; read by: resazurin ; strain or isolate: ATCC 16424 ; value: 8 µg/mL
CCC(=O)OC1CCN(CC(O)(Cn2cncn2)c2ccc(F)cc2F)CC1 ; read by: broth dilution ; strain or isolate: 0504656 ; value: 10.1 µM
NC(=S)N/N=C/c1ccsc1/C=N/NC(N)=S ; read by: broth dilution ; strain or isolate: CB 11326 ; value: >250 µg/mL
CC1(C)Oc2c(ccc3c(=O)c4c(O)cccc4oc23)C[C@@]1(C)O ; value: >250 µg/mL
O=C(COc1cccc2ccccc12)OC1CCN(CC(O)(Cn2cncn2)c2ccc(F)cc2F)CC1 ; read by: broth dilution ; strain or isolate: 0504656 ; value: 1.915 µM
COc1cc2oc3ccccc3c(=O)c2cc1OC ; value: 31 µg/mL
CC(C)(C)C(=O)OC1CCN(CC(O)(Cn2cncn2)c2ccc(F)cc2F)CC1 ; read by: broth dilution ; strain or isolate: 0504656 ; value: 9.474 µM
C[C@@H](N1CCN(Cc2cn(Cc3ccc(F)cc3)c3c(Cl)cccc23)CC1)[C@](O)(Cn1cncn1)c1ccc(F)cc1F ; read by: resazurin ; strain or isolate: ATCC 16424 ; value: 8 µg/mL
C[C@H]1[C@H](O)[C@@H](C)/C=C/C=C/C=C/C=C/C=C/C=C/C=C/[C@H](O[C@@H]2O[C@H](C)[C@@H](O)[C@H](N)[C@@H]2O)C[C@@H]2O[C@](O)(C[C@@H](O)C[C@@H](O)CC[C@H](O)[C@@H](O)C[C@@H](O)CC(=O)O[C@H]1C)C[C@H](O)[C@H]2C(=O)O ; value: 8 µg/mL
CC(O)Cc1ccc(Cn2cc(CN3CCN([C@H](C)[C@](O)(Cn4cncn4)c4ccc(F)cc4F)CC3)c3ccccc32)cc1 ; read by: resazurin ; strain or isolate: ATCC 16424 ; value: >128 µg/mL
NC(=O)N/N=C/c1ccsc1.NC(=O)N/N=C/c1ccsc1.[Cl][Ni][Cl] ; read by: turbidity / absorbance ; strain or isolate: CBS 113.26 ; value: >250 µg/mL
CN1CCN(c2n[nH]c(N3C(=O)CS[C@@H]3c3ccc4c(c3)OCO4)n2)CC1 ; read by: broth dilution ; strain or isolate: 182.99 ; value: 3.12 µg/mL
C[C@@H](N1CCN(Cc2cn(Cc3ccc(F)cc3)c3ccccc23)CC1)[C@](O)(Cn1cncn1)c1ccc(F)cc1F ; read by: resazurin ; strain or isolate: ATCC 16424 ; value: 16 µg/mL

Repeating the final 2 entries:

| smiles | read by | strain or isolate | value |
|---|---|---|---|
| CN1CCN(c2n[nH]c(N3C(=O)CS[C@@H]3c3ccc4c(c3)OCO4)n2)CC1 | broth dilution | 182.99 | 3.12 µg/mL |
| C[C@@H](N1CCN(Cc2cn(Cc3ccc(F)cc3)c3ccccc23)CC1)[C@](O)(Cn1cncn1)c1ccc(F)cc1F | resazurin | ATCC 16424 | 16 µg/mL |